Results of unrelated studies side by side (data: NIAID ChemDB).

Common to all: whole-cell or culture tests; agent: Herpes simplex virus 1; cells: HFF; endpoint: EC50

ECn is the concentration giving n% inhibition of infection, replication or growth.

{"SMILES": "Nc1ncnc2c1c(Br)cn2[C@H]1CC[C@@H](CO)O1", "read by": "plaque count", "value": ">100 µM"}
{"SMILES": "Nc1ccn([C@@H]2C[C@@H](O)[C@H](CO)O2)c(=O)n1", "value": ">20 µM"}
{"SMILES": "C[CH](C)[Sn]([Cl])([Cl])[CH](C)C", "strain": "F", "read by": "plaque count", "value": "2.4 µg/mL"}
{"SMILES": "N#Cc1c(N)n(COCCO)c2ncnc(N)c12", "read by": "ELISA", "value": ">100 µM"}
{"SMILES": "COC(=O)[C@H](C)NP(=O)(OC[C@H]1C/C1=C/n1cnc2c(=O)[nH]c(N)nc21)Oc1ccccc1", "read by": "plaque count", "value": "22.1 µM"}
{"SMILES": "Cn1cnc2nc(NCCO)nc(NCc3ccccc3)c21", "strain": "KOS", "read by": "ELISA", "value": ">100 µM"}
{"SMILES": "[Br][Sn]([Br])([c]1ccccc1)[c]1ccccc1", "strain": "F", "read by": "plaque count", "value": "0.45 µg/mL"}
{"SMILES": "NC(=O)c1c(N)n(COCCO)c2ncnc(N)c12", "read by": "ELISA", "value": ">100 µM"}
{"SMILES": "[Cl][Sn]([Cl])([Cl])[c]1ccccc1", "strain": "F", "read by": "plaque count", "value": "0.6 µg/mL"}
{"SMILES": "NC(=O)c1c(Br)n(COCCO)c2ncnc(N)c12", "read by": "ELISA", "value": ">100 µM"}
{"SMILES": "Nc1ncnc2c1ccn2[C@H]1C=C[C@@H](CO)O1", "read by": "plaque count", "value": ">100 µM"}
{"SMILES": "COCCOCn1cc(C(N)=S)c2c(N)ncnc21", "strain": "KOS", "read by": "ELISA", "value": "85 µM"}
{"SMILES": "NC(=O)c1c(Br)n(COC(CO)CO)c2ncnc(N)c12", "read by": "ELISA", "value": ">100 µM"}
{"SMILES": "COC(=O)[C@H](C)NP(=O)(OC[C@H]1C/C1=C/n1cnc2c(N)nc(N)nc21)Oc1ccccc1", "read by": "plaque count", "value": "5.5 µM"}
{"SMILES": "CCC[CH2][Sn]([Cl])([CH2]CCC)[CH2]CCC", "strain": "F", "read by": "plaque count", "value": "<1 µg/mL"}
{"SMILES": "Nc1ncnc2c1ncn2[C@@H]1C[C@@H](O)[C@H](CO)O1", "value": ">100 µM"}
{"SMILES": "[Cl][Sn]([c]1ccccc1)([c]1ccccc1)[c]1ccccc1", "strain": "F", "read by": "plaque count", "value": "<0.5 µg/mL"}
{"SMILES": "Nc1ncnc2c1c(Br)cn2[C@H]1C[C@H](O)[C@@H](CO)O1", "read by": "plaque count", "value": "8.5 µM"}
{"SMILES": "CCCC[CH2][Sn]([Cl])([Cl])[CH2]CCCC", "strain": "F", "read by": "plaque count", "value": "<1.4 µg/mL"}
{"SMILES": "NC(=O)c1cn(COC(CO)CO)c2ncnc(N)c12", "read by": "plaque count", "value": ">100 µM"}
{"SMILES": "N#Cc1c(N)n(COC(CO)CO)c2ncnc(N)c12", "read by": "ELISA", "value": ">100 µM"}
{"SMILES": "O=[N+]([O-])c1ccc2nc(Cl)[nH]c2c1", "strain": "KOS", "read by": "ELISA", "value": ">21 µM"}
{"SMILES": "Nc1ncnc2c1ncn2[C@@H]1C[C@@H](O)[C@H](CO)O1", "value": ">100 µM"}
{"SMILES": "C[CH2][Sn]([Cl])([Cl])[CH2]C", "strain": "F", "read by": "plaque count", "value": "3.1 µg/mL"}
{"SMILES": "Nc1ccc2c(c1)nc(Cl)n2[C@@H]1O[C@H](CO)[C@@H](O)[C@H]1O", "strain": "KOS", "read by": "ELISA", "value": ">100 µM"}
{"SMILES": "Cc1cn([C@@H]2C[C@@H](O)[C@H](CO)O2)c(=O)[nH]c1=O", "value": ">200 µM"}

A second listing of 3 rows from above:

SMILES | strain | read by | value
CCC[CH2][Sn]([Cl])([CH2]CCC)[CH2]CCC | F | plaque count | <1 µg/mL
NC(=O)c1c(Br)n(COCCO)c2ncnc(N)c12 |  | ELISA | >100 µM
NC(=O)c1cn(COC(CO)CO)c2ncnc(N)c12 |  | plaque count | >100 µM

An empty or dashed field is not shown. Neighbouring rows are from separate reports.